{"source": "PubChem BioAssay AID504761 (Drosophila RNAi Screening Center, 2011)", "purpose": "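Genome-wide fly cell screen for genes dengue virus requires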 (primary screen)", "cells": "D.Mel-2 cells from Drosophila", "knock-down reagent": "long dsRNA against Drosophila genes", "treatment": "infection with dengue virus type 2; dose and infection time not stated", "detection": "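Cells stained for dengue envelope protein and imaged; percent of infected cells per well on duplicate plates, ranked by infection, with stained nuclei counted for cell number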", "scale": "infection score: higher = more virus-infected cells; cell count: higher = more cells in the well", "call rule": "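Low infection ranks in the two replicates (chance level up to 0.065) followed by a retest with a 1.5-fold or larger significant decrease, p below 0.05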", "calls": "active = confirmed: knock-down lowers infection; inactive = not picked or not confirmed", "note": "The deposit covers about 22,000 reagents; below is an unselected part of those with a known target gene and a result. Over the whole deposit, 116 (0.52%) are marked active. 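Calls depend on retest data that are not deposited; infection was ranked per plate without normalising between plates; the unit of the infection score is not given.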 Raw values vary from plate to plate and are shown uncorrected. Not all columns of the deposit are shown. Not stated in the record: the amount of reagent, the time to read-out."}
The first 2 records as a preview:
{"Gene": "synr", "amplicon": "DRSC02369", "infection score, replicate 1": 8.97, "cell count, replicate 1": 6021, "Call": "inactive"}
{"Gene": "CG31419", "amplicon": "DRSC15771", "infection score, replicate 1": 9.54, "cell count, replicate 1": 5642, "Call": "inactive"}

The list itself, from the first entry:
{"Gene": "synr", "amplicon": "DRSC02369", "infection score, replicate 1": 8.97, "cell count, replicate 1": 6021, "Call": "inactive"}
{"Gene": "CG31419", "amplicon": "DRSC15771", "infection score, replicate 1": 9.54, "cell count, replicate 1": 5642, "Call": "inactive"}
{"Gene": "CG31419", "amplicon": "DRSC26294", "infection score, replicate 1": 14.7, "cell count, replicate 1": 5439, "Call": "inactive"}
{"Gene": "Rsph1", "amplicon": "DRSC02864", "infection score, replicate 1": 6.12, "cell count, replicate 1": 6503, "Call": "inactive"}
{"Gene": "Rsph1", "amplicon": "DRSC26510", "infection score, replicate 1": 0.62, "cell count, replicate 1": 6127, "Call": "inactive"}
{"Gene": "rst", "amplicon": "DRSC17243", "infection score, replicate 1": 2.78, "cell count, replicate 1": 6863, "Call": "inactive"}
{"Gene": "rst", "amplicon": "DRSC18828", "infection score, replicate 1": 4.43, "cell count, replicate 1": 6115, "Call": "inactive"}
{"Gene": "rst", "amplicon": "DRSC25716", "infection score, replicate 1": 1.66, "cell count, replicate 1": 5960, "Call": "inactive"}
{"Gene": "Rb97D", "amplicon": "DRSC16815", "infection score, replicate 1": 9.64, "cell count, replicate 1": 6101, "Call": "inactive"}
{"Gene": "Rb97D", "amplicon": "DRSC25278", "infection score, replicate 1": 5.47, "cell count, replicate 1": 6364, "Call": "inactive"}
{"Gene": "phr6-4", "amplicon": "DRSC03589", "infection score, replicate 1": 3.06, "cell count, replicate 1": 6755, "Call": "inactive"}
{"Gene": "phr6-4", "amplicon": "DRSC26873", "infection score, replicate 1": 1.42, "cell count, replicate 1": 6419, "Call": "active"}
{"Gene": "Rh50", "amplicon": "DRSC08692", "infection score, replicate 1": 8.21, "cell count, replicate 1": 6150, "Call": "inactive"}
{"Gene": "ndl", "amplicon": "DRSC11374", "infection score, replicate 1": 3.98, "cell count, replicate 1": 5704, "Call": "inactive"}
{"Gene": "ndl", "amplicon": "DRSC26902", "infection score, replicate 1": 3.5, "cell count, replicate 1": 6322, "Call": "inactive"}
{"Gene": "CG14441", "amplicon": "DRSC24967", "infection score, replicate 1": 0.98, "cell count, replicate 1": 6296, "Call": "inactive"}
{"Gene": "Dhfr", "amplicon": "DRSC16646", "infection score, replicate 1": 5.72, "cell count, replicate 1": 6137, "Call": "inactive"}
{"Gene": "Dhfr", "amplicon": "DRSC29019", "infection score, replicate 1": 6.32, "cell count, replicate 1": 5395, "Call": "inactive"}
{"Gene": "Sap47", "amplicon": "DRSC16850", "infection score, replicate 1": 25.9, "cell count, replicate 1": 5698, "Call": "inactive"}
{"Gene": "Sap47", "amplicon": "DRSC27162", "infection score, replicate 1": 5.49, "cell count, replicate 1": 6480, "Call": "inactive"}
{"Gene": "Alg9", "amplicon": "DRSC14407", "infection score, replicate 1": 7.11, "cell count, replicate 1": 6677, "Call": "inactive"}
